Experimental findings from patent US20160244511A1 (published 2016) are described below.

T1: Staphylococcus aureus alpha-toxin (Hla), USA300 TCH1516 strain
T1 chain: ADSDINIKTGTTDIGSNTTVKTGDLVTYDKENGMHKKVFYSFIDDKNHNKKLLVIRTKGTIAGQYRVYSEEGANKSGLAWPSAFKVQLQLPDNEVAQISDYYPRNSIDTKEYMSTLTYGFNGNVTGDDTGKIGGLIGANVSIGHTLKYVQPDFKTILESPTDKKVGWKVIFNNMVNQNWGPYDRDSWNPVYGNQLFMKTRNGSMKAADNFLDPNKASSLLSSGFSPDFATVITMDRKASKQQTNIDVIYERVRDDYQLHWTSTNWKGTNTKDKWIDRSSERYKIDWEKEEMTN

B1: AB-28-6 Fab (Fab, V domains shown)
VH: QVQLQESGPGLVRPSETLSLTCAVSGYSISSGMGWGWIRQPPGKGLEWIGSIDQRGSTYYNPSLKSRVTISVDTSKNQFSLKLSSVTAADTAVYYCARDAGHAVDMDVWGKGTTVTVSS
VL: DIQMTQSPSSVSASVGDRVTITCRASQGISRWLAWYQQKPGKAPKLLIYAASSLQSGVPSRFSGSGSGTDFTLTISSLQPEDFATYYCQQGYVFPLTFGGGTKVEIK
B2: AB-28-5 (antibody, V domains shown)
VH: B1 VH with R13K, S51R, I52V, A103G
VL: B1 VL
B3: AB-28-8 Fab (Fab, V domains shown)
VH: B1 VH with R13K, G36D, S63P, K65E, A103G
VL: B1 VL
B4: AB-28-12 (antibody, V domains shown)
VH: B1 VH with R13K, G36D, L46R, K65E, S66G, A103G
VL: B1 VL
B5: AB-28-3 Fab (Fab, V domains shown)
VH: B1 VH with R13K, I52V, A103G, V104A
VL: B1 VL
B6: AB-28-11 (antibody, V domains shown)
VH: B1 VH with R13K, G36D, K65E, S66G, A103G
VL: B1 VL
B7: AB-28-9 Fab (Fab, V domains shown)
VH: B1 VH with Q1E
VL: B1 VL
B8: AB-28-4 (antibody, V domains shown)
VH: B1 VH with R13K, S28P, S51R, V68A, A103G
VL: B1 VL
B9: AB-28 Fab fragment (Fab, V domains shown)
VH: B1 VH with R13K, A103G
VL: B1 VL
B10: AB-28-13 (antibody, V domains shown)
VH: B1 VH with R13K, G36D, K65E, S66G, V68A, A103G
VL: B1 VL
B11: AB-28-10 (antibody, V domains shown)
VH: B1 VH with R13K
VL: B1 VL
B12: AB-28-7 Fab (Fab, V domains shown)
VH: B1 VH with R13K, G36D, L46R, K65E, S66G, V68A, A103G
VL: B1 VL

Where a chain is given by its changes, count along the chain named.

For the experiment, the target named is T1, Staphylococcus aureus alpha-toxin ….
For B1, the Kd is less than 2 pM. Regarding B2, binding was characterised by a dissociation constant (Kd) of 30 pM. For the molecule B3, the Kd is less than 2 pM. The molecule B4 displayed a Kd of less than 2 pM.

Molecule B5 showed a Kd of 37 pM. In other words, the picomolar range. As for B6, the figure is less than 2 pM; as for B7, less than 2 pM; as for B8, 23 pM.

For B9, the Kd was less than 2 pM. In the case of B10, the Kd is less than 2 pM. With B11, the Kd was less than 2 pM. In the case of B12, the Kd is less than 2 pM.
